The entries are a selection whose mix differs from that of the whole data set. Activity calls are given as the source filed them. Cut-off read from the data, not from the text of the source: active = inhibition above about 14%; inactive = the rest.

Consider two compounds from PubChem BioAssay AID1053136 (The Scripps Research Institute Molecular Screening Center, 2014).

The assay deals with HIV-1 integrase / human LEDGF/p75 complex. In words: blockers of LEDGF/p75-dependent integrase activity – biochemical, TR-FRET, confirmation (AID 1053136). The note with it: TR-FRET LEDGF/p75-dependent HIV-1 integration, at 3.7 µM, hits give high values. In general terms: Time-resolved FRET reads energy transfer from a long-lived donor to a nearby acceptor.
By inhibition is commonly meant the drop in the measured response relative to a control, in per cent. Turning to `Nc1cccc2c([As](=O)(O)O)cccc12`, the inhibition is active: 78.1%.
The figure for `Nc1cccc2ccc([As](=O)(O)O)cc12` is active: 43.5%.
